What is called Ki is the equilibrium dissociation constant of an inhibitor or competing ligand from its target. Read a high Ki as lower affinity.

We go through one compound from ChEMBL document CHEMBL1124753, “Hydroxyethylamine analogues of the p17/p24 substrate cleavage site are tight-binding inhibitors of HIV protease” (J Med Chem, 1990).

This experiment deals with Human immunodeficiency virus type 1 protease (Human immunodeficiency virus 1, UniProt Q72874). The experiment in a line: Inhibition of HIV protease at pH 6.4, 37 degree C. The essentials:
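Recombinant HIV protease expressed in E. coli; substrate Ac-Thr-Ile-Met-Gln-Arg-NH2 varied 0.5–10 mM. Inhibitor added in DMSO (final 1–3%), preincubated with enzyme 10 min before substrate started the reaction. Initial rates by HPLC and fluorometric assays. Ki from fitting initial velocities to the competitive inhibition equation; each is the average of three or more independent determinations.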

`CC[C@H](C)[C@H](NC(=O)[C@@H]1CCCN1C[C@H](O)[C@H](Cc1ccccc1)NC(=O)[C@H](CC(N)=O)NC(=O)[C@H](CC(C)C)NC(C)=O)C(=O)OC` yielded a Ki of 4.52 µM.
